Among the data in ChEMBL document CHEMBL5346973 (J Med Chem, 2023) are Ratio IC50 values, retold here.

Protein sequences, listed by entry. Tags and fused reporters are not part of them. Residues count along the entry.
UniProt P04756, 21-457 limits assumed: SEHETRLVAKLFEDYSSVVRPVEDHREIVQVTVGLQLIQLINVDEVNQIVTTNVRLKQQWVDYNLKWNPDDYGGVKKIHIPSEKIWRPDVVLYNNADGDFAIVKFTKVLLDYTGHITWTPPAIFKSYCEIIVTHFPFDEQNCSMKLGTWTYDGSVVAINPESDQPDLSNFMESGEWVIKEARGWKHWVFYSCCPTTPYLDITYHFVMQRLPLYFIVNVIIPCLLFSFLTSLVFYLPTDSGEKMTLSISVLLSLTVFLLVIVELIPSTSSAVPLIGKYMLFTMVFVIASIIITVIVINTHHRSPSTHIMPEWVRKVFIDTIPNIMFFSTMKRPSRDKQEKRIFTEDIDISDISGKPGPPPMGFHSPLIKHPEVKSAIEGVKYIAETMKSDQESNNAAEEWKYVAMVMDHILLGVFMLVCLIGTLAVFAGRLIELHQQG
UniProt P09690, 24-501 partner limits assumed: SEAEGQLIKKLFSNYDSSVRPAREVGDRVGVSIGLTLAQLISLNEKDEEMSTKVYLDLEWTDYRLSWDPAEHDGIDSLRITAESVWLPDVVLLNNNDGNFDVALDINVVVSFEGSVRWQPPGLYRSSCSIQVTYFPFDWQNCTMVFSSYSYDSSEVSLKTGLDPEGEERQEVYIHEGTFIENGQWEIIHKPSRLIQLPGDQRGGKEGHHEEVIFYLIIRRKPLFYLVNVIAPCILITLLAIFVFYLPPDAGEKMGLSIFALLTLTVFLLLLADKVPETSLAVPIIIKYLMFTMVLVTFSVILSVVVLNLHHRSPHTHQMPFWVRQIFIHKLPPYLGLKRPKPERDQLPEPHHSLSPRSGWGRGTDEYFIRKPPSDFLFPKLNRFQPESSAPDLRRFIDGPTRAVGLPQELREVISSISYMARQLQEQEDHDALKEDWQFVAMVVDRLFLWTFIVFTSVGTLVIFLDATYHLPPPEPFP
UniProt P02716, 25-520 partner limits assumed: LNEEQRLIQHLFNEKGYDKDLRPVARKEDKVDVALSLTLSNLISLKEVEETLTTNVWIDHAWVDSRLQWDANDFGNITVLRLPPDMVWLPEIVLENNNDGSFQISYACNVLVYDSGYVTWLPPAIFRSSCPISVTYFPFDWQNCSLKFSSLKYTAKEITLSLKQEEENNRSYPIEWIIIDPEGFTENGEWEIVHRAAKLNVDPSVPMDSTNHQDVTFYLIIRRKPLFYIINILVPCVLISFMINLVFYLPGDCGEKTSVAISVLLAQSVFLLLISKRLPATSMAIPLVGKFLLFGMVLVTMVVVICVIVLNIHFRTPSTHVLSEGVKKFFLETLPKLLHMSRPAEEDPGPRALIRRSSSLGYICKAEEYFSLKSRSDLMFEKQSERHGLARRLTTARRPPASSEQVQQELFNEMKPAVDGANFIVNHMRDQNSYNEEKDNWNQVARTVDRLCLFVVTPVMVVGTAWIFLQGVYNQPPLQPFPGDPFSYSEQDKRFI
UniProt P20782, 21-493 partner limits assumed: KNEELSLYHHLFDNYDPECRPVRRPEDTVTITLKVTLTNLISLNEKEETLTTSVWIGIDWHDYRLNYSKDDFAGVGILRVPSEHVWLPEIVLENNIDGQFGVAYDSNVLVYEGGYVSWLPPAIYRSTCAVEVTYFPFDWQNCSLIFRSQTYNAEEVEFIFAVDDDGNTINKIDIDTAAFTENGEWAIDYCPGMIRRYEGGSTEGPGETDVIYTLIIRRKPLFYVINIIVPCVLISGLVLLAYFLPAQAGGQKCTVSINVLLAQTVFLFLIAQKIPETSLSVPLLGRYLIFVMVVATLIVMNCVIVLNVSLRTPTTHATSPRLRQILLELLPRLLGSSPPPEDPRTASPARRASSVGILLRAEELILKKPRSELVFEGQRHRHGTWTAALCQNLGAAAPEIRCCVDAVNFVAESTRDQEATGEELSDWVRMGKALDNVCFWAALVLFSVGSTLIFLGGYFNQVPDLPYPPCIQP

The structures appear in SMILES notation.

Assay [1] addresses Nicotinic acetylcholine receptor alpha1/beta1/epsilon/delta (Mus musculus) (UniProt P04756+P09690+P02716+P20782). Description: Antagonist activity at mouse alpha1beta1deltaepsilon nACh receptor expressed in Xenopus oocyte assessed as inhibition of acetylcholine-induced response at -70 mV holding potential by measuring ratio of IC50 by voltage-clamp based electrophysiological assay relative to GeXIVA. To be noted: filed as antagonist.

Assay [2] can be described thus: Selectivity ratio of IC50 for mouse alpha1beta1deltaepsilon nACh receptor to IC50 for rat alpha9alpha10 nACh receptor.

For the compound `CC[C@H](C)[C@@H]1NC(=O)[C@H](CCCNC(=N)N)NC(=O)[C@H](CCCNC(=N)N)NC(=O)[C@@H]2CSSC[C@H](NC(=O)[C@H](Cc3ccc(O)cc3)NC(=O)[C@H](CCCNC(=N)N)NC(=O)CNC(=O)[C@H](CO)NC(=O)[C@H](CO)NC(=O)[C@H](CCCNC(=N)N)NC(=O)[C@@H](NC(=O)[C@@H](N)[C@@H](C)O)CSSC[C@@H](C(=O)N[C@H](C(=O)O)C(C)C)NC(=O)[C@H](C)NC(=O)[C@H](CC(=O)O)NC(=O)[C@H]([C@@H](C)O)NC1=O)C(=O)N[C@@H](CCCNC(=N)N)C(=O)N[C@@H](CO)C(=O)N1CCC[C@H]1C(=O)N[C@@H](Cc1ccc(O)cc1)C(=O)N[C@@H](CC(=O)O)C(=O)N[C@@H](C)C(=O)N[C@@H](CCCNC(=N)N)C(=O)N[C@@H](CCCNC(=N)N)C(=O)N[C@@H](CCCNC(=N)N)C(=O)N[C@@H](Cc1ccc(O)cc1)C(=O)N2`, the values for the Ratio IC50 in assay [1] and in assay [2] were 0.8 and 18.8, respectively.
On the same counts, the results for `CC[C@H](C)[C@@H]1NC(=O)[C@H](CCCNC(=N)N)NC(=O)[C@H](CCCNC(=N)N)NC(=O)[C@@H](NC(=O)[C@H](Cc2ccc(O)cc2)NC(=O)[C@H](CCCNC(=N)N)NC(=O)[C@H](CCCNC(=N)N)NC(=O)[C@H](CCCNC(=N)N)NC(=O)[C@H](CCCNC(=N)N)NC(=O)[C@H](CC(=O)O)NC(=O)[C@H](Cc2ccc(O)cc2)NC(=O)[C@@H]2CCCN2C(=O)[C@@H](CO)NC(=O)[C@H](C)NC(=O)[C@@H]2CSSC[C@H](NC(=O)[C@@H](N)[C@@H](C)O)C(=O)N[C@@H](CCCNC(=N)N)C(=O)N[C@@H](CO)C(=O)N[C@@H](CO)C(=O)NCC(=O)N[C@@H](CCCNC(=N)N)C(=O)N[C@@H](Cc3ccc(O)cc3)C(=O)N2)CSSC[C@@H](C(=O)N[C@H](C(=O)O)C(C)C)NC(=O)[C@H](C)NC(=O)[C@H](CC(=O)O)NC(=O)[C@H]([C@@H](C)O)NC1=O` are 2 and 14.4.
In the case of `CC[C@H](C)[C@@H]1NC(=O)[C@H](CCCNC(=N)N)NC(=O)[C@H](CCCNC(=N)N)NC(=O)[C@@H]2CSSC[C@H](NC(=O)[C@H](Cc3ccc(O)cc3)NC(=O)[C@H](CCCNC(=N)N)NC(=O)CNC(=O)[C@H](CO)NC(=O)[C@H](CO)NC(=O)[C@H](CCCNC(=N)N)NC(=O)[C@@H](NC(=O)[C@@H](N)[C@@H](C)O)CSSC[C@@H](C(=O)N[C@H](C(=O)O)C(C)C)NC(=O)[C@H](C)NC(=O)[C@H](CC(=O)O)NC(=O)[C@H]([C@@H](C)O)NC1=O)C(=O)N[C@@H](CCCNC(=N)N)C(=O)N[C@@H](CO)C(=O)N1CCC[C@H]1C(=O)N[C@@H](Cc1ccc(O)cc1)C(=O)N[C@@H](CC(=O)O)C(=O)N[C@@H](CCCNC(=N)N)C(=O)N[C@@H](CCCNC(=N)N)C(=O)N[C@@H](CCCNC(=N)N)C(=O)N[C@@H](C)C(=O)N[C@@H](Cc1ccc(O)cc1)C(=O)N2`, the values for the Ratio IC50 in assay [1] and in assay [2] were 0.8 and 24.1, respectively.
As to `CC[C@H](C)[C@@H]1NC(=O)[C@H](CCCNC(=N)N)NC(=O)[C@H](CCCNC(=N)N)NC(=O)[C@@H]2CSSC[C@H](NC(=O)[C@H](Cc3ccc(O)cc3)NC(=O)[C@H](CCCNC(=N)N)NC(=O)CNC(=O)[C@H](CO)NC(=O)[C@H](CO)NC(=O)[C@H](CCCNC(=N)N)NC(=O)[C@@H](NC(=O)[C@H](C)N)CSSC[C@@H](C(=O)N[C@H](C(=O)O)C(C)C)NC(=O)[C@H](C)NC(=O)[C@H](C)NC(=O)[C@H]([C@@H](C)O)NC1=O)C(=O)N[C@@H](CCCNC(=N)N)C(=O)N[C@@H](CO)C(=O)N1CCC[C@H]1C(=O)N[C@@H](Cc1ccc(O)cc1)C(=O)N[C@@H](CC(=O)O)C(=O)N[C@@H](CCCNC(=N)N)C(=O)N[C@@H](CCCNC(=N)N)C(=O)N[C@@H](CCCNC(=N)N)C(=O)N[C@@H](CCCNC(=N)N)C(=O)N[C@@H](Cc1ccc(O)cc1)C(=O)N2`, the results for the Ratio IC50 in assay [1] and in assay [2] were 1.8 and 56.7, respectively.
On the same counts, the results for `CC[C@H](C)[C@@H]1NC(=O)[C@H](CCCNC(=N)N)NC(=O)[C@H](CCCNC(=N)N)NC(=O)[C@@H]2CSSC[C@H](NC(=O)[C@H](Cc3ccc(O)cc3)NC(=O)[C@H](CCCNC(=N)N)NC(=O)CNC(=O)[C@H](CO)NC(=O)[C@H](CO)NC(=O)[C@H](CCCNC(=N)N)NC(=O)[C@@H](NC(=O)[C@H](C)N)CSSC[C@@H](C(=O)N[C@H](C(=O)O)C(C)C)NC(=O)[C@H](C)NC(=O)[C@H](CC(=O)O)NC(=O)[C@H]([C@@H](C)O)NC1=O)C(=O)N[C@@H](CCCNC(=N)N)C(=O)N[C@@H](CO)C(=O)N1CCC[C@H]1C(=O)N[C@@H](Cc1ccc(O)cc1)C(=O)N[C@@H](CC(=O)O)C(=O)N[C@@H](CCCNC(=N)N)C(=O)N[C@@H](CCCNC(=N)N)C(=O)N[C@@H](CCCNC(=N)N)C(=O)N[C@@H](CCCNC(=N)N)C(=O)N[C@@H](Cc1ccc(O)cc1)C(=O)N2` are 1.6 and 95.
Turning to `CC[C@H](C)[C@@H]1NC(=O)[C@H](CCCNC(=N)N)NC(=O)[C@H](CCCNC(=N)N)NC(=O)[C@@H](NC(=O)[C@H](Cc2ccc(O)cc2)NC(=O)[C@H](CCCNC(=N)N)NC(=O)[C@H](CCCNC(=N)N)NC(=O)[C@H](CCCNC(=N)N)NC(=O)[C@H](CCCNC(=N)N)NC(=O)[C@H](CC(=O)O)NC(=O)[C@H](Cc2ccc(O)cc2)NC(=O)[C@@H]2CCCN2C(=O)[C@H](C)NC(=O)[C@H](CCCNC(=N)N)NC(=O)[C@@H]2CSSC[C@H](NC(=O)[C@@H](N)[C@@H](C)O)C(=O)N[C@@H](CCCNC(=N)N)C(=O)N[C@@H](CO)C(=O)N[C@@H](CO)C(=O)NCC(=O)N[C@@H](CCCNC(=N)N)C(=O)N[C@@H](Cc3ccc(O)cc3)C(=O)N2)CSSC[C@@H](C(=O)N[C@H](C(=O)O)C(C)C)NC(=O)[C@H](C)NC(=O)[C@H](CC(=O)O)NC(=O)[C@H]([C@@H](C)O)NC1=O`, the figures for the Ratio IC50 in assay [1] and in assay [2] were 2.1 and 42.3, respectively.
For the compound `CC[C@H](C)[C@@H]1NC(=O)[C@H](CCCNC(=N)N)NC(=O)[C@H](CCCNC(=N)N)NC(=O)[C@@H]2CSSC[C@H](NC(=O)[C@H](Cc3ccc(O)cc3)NC(=O)[C@H](CCCNC(=N)N)NC(=O)CNC(=O)[C@H](CO)NC(=O)[C@H](CO)NC(=O)[C@H](C)NC(=O)[C@@H](NC(=O)[C@@H](N)[C@@H](C)O)CSSC[C@@H](C(=O)N[C@H](C(=O)O)C(C)C)NC(=O)[C@H](C)NC(=O)[C@H](CC(=O)O)NC(=O)[C@H]([C@@H](C)O)NC1=O)C(=O)N[C@@H](CCCNC(=N)N)C(=O)N[C@@H](CO)C(=O)N1CCC[C@H]1C(=O)N[C@@H](Cc1ccc(O)cc1)C(=O)N[C@@H](CC(=O)O)C(=O)N[C@@H](CCCNC(=N)N)C(=O)N[C@@H](CCCNC(=N)N)C(=O)N[C@@H](CCCNC(=N)N)C(=O)N[C@@H](CCCNC(=N)N)C(=O)N[C@@H](Cc1ccc(O)cc1)C(=O)N2`, the values for the Ratio IC50 in assay [1] and in assay [2] were 2.6 and 58.9, respectively.
On the same counts, the results for `CC[C@H](C)[C@@H]1NC(=O)[C@H](C)NC(=O)[C@H](CCCNC(=N)N)NC(=O)[C@@H](NC(=O)[C@H](Cc2ccc(O)cc2)NC(=O)[C@H](CCCNC(=N)N)NC(=O)[C@H](CCCNC(=N)N)NC(=O)[C@H](CCCNC(=N)N)NC(=O)[C@H](CCCNC(=N)N)NC(=O)[C@H](CC(=O)O)NC(=O)[C@H](Cc2ccc(O)cc2)NC(=O)[C@@H]2CCCN2C(=O)[C@H](CO)NC(=O)[C@H](CCCNC(=N)N)NC(=O)[C@@H]2CSSC[C@H](NC(=O)[C@@H](N)[C@@H](C)O)C(=O)N[C@@H](CCCNC(=N)N)C(=O)N[C@@H](CO)C(=O)N[C@@H](CO)C(=O)NCC(=O)N[C@@H](CCCNC(=N)N)C(=O)N[C@@H](Cc3ccc(O)cc3)C(=O)N2)CSSC[C@@H](C(=O)N[C@H](C(=O)O)C(C)C)NC(=O)[C@H](C)NC(=O)[C@H](CC(=O)O)NC(=O)[C@H]([C@@H](C)O)NC1=O` are 10.5 and 102.
With `CC[C@H](C)[C@@H]1NC(=O)[C@H](CCCNC(=N)N)NC(=O)[C@H](CCCNC(=N)N)NC(=O)[C@@H]2CSSC[C@H](NC(=O)[C@H](Cc3ccc(O)cc3)NC(=O)[C@H](CCCNC(=N)N)NC(=O)CNC(=O)[C@H](CO)NC(=O)[C@H](CO)NC(=O)[C@H](CCCNC(=N)N)NC(=O)[C@@H](NC(=O)[C@@H](N)[C@@H](C)O)CSSC[C@@H](C(=O)N[C@H](C(=O)O)C(C)C)NC(=O)[C@H](C)NC(=O)[C@H](CC(=O)O)NC(=O)[C@H](C)NC1=O)C(=O)N[C@@H](CCCNC(=N)N)C(=O)N[C@@H](CO)C(=O)N1CCC[C@H]1C(=O)N[C@@H](Cc1ccc(O)cc1)C(=O)N[C@@H](CC(=O)O)C(=O)N[C@@H](CCCNC(=N)N)C(=O)N[C@@H](CCCNC(=N)N)C(=O)N[C@@H](CCCNC(=N)N)C(=O)N[C@@H](CCCNC(=N)N)C(=O)N[C@@H](Cc1ccc(O)cc1)C(=O)N2`, the Ratio IC50 in assay [1] was 0.8; in assay [2], 19.7.
On the same counts, the results for `CC[C@H](C)[C@@H]1NC(=O)[C@H](CCCNC(=N)N)NC(=O)[C@H](CCCNC(=N)N)NC(=O)[C@@H](NC(=O)[C@H](Cc2ccc(O)cc2)NC(=O)[C@H](CCCNC(=N)N)NC(=O)[C@H](CCCNC(=N)N)NC(=O)[C@H](CCCNC(=N)N)NC(=O)[C@H](CCCNC(=N)N)NC(=O)[C@H](CC(=O)O)NC(=O)[C@H](Cc2ccc(O)cc2)NC(=O)[C@H](C)NC(=O)[C@H](CO)NC(=O)[C@H](CCCNC(=N)N)NC(=O)[C@@H]2CSSC[C@H](NC(=O)[C@@H](N)[C@@H](C)O)C(=O)N[C@H](CCCNC(=N)N)C(=O)N[C@@H](CO)C(=O)N[C@@H](CO)C(=O)NCC(=O)N[C@@H](CCCNC(=N)N)C(=O)N[C@@H](Cc3ccc(O)cc3)C(=O)N2)CSSC[C@@H](C(=O)N[C@H](C(=O)O)C(C)C)NC(=O)[C@H](C)NC(=O)[C@H](CC(=O)O)NC(=O)[C@H]([C@@H](C)O)NC1=O` are 1.6 and 53.1.
